Measurements reported in PubChem BioAssay AID1259414 (Drosophila RNAi Screening Center, 2018).

Assay: 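Host factors increasing or decreasing Wolbachia levels in cultured fly cells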 (primary screen)
Cells: Drosophila JW18 cells infected with Wolbachia
Reagents: long dsRNA against Drosophila genes, 0.25 µg dsRNA per well of a 384-well plate
Timing: 5 days
Treatment: cells persistently infected with Wolbachia before knock-down; no added drug
Read-out: 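Automated imaging of bacterial rRNA staining divided by host cell count, reported as plate-normalised robust z-score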
Scale: Wolbachia per cell robust z: higher = more Wolbachia per host cell than the plate typical
Active means: 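Active if absolute robust z reaches 1.5 in two or more of three replicates, leaving out multi- or no-target dsRNAs, genes unexpressed in JW18 and A1 wells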
The screen tested about 24,000 reagents; shown is a random part of those that have a named target and a result. In the full data, about 1,210 (5%) got an active call. 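Inactive calls also include excluded dsRNAs with several or no targets, genes unexpressed in JW18, and well A1, regardless of score.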 Entries without a mark were called inactive. The numbers tell different reagents against one gene apart. Reagent sequences are not shown.

| Gene | dsRNA no. | Wolbachia per cell robust z, rep 1 | Wolbachia per cell robust z, rep 2 | Wolbachia per cell robust z, rep 3 |
| --- | --- | --- | --- | --- |
| CG45002 | 1 | 0.668 | 0.599 | -0.895 |
| CG45002 | 2 | 1.97 | -0.00658 | 0.89 |
| AIMP2 | 1 | 0.299 | -6.92 | -0.124 |
| AIMP2 | 2 | 0.37 | 0.323 | 0.0322 |
| Galphai | 1 | 0.0444 | -4.83 | -1.35 |
| Galphai | 2 | -0.222 | 0.898 | 0.133 |
| CG3609 | 1 | -1.93 | 0.86 | 1.37 |
| CG3609 | 2 | -6.55 | 1.01 | 0.526 |
| CG14323 | 1 | 0.435 | 0.54 | 0.273 |
| CR11023 | 1 | 0.287 | 0.801 | -0.702 |
| CR11023 | 2 | 1.91 | 0.459 | 0.782 |
| CG15337 | 1 | -4.41 | -0.952 | -1.48 |
| CG15337 | 2 | -1.52 | -3.53 | -3.31 |
| obst-J | 1 | -1.55 | 0.111 | 0.117 |
| obst-J | 2 | 0.252 | -0.105 | 0.263 |
| CG14505 | 1 | -1.34 | -6.63 | -1.87 |
| tll | 1 | 0.505 | 0.642 | -0.977 |
| tll | 2 | -0.69 | 0.239 | -1.07 |
| tll | 3 | 2.33 | 0.0652 | 0.294 |
| Gal | 1 | 0.125 | -0.204 | -0.679 |
| Gal | 2 | 0.457 | -1.21 | 0.282 |
| CG13640 | 1 | 0.246 | 0.216 | 0.0226 |
| Fum2 | 1 | -1.74 | -0.363 | 0.0858 |
| Fum2 | 2 | -0.347 | 0.609 | 1.2 |
| stwl | 1 | -0.671 | 0.57 | 2.06 |
| stwl | 2 | 1.15 | -0.507 | 0.485 |
| meng | 1 | -3.59 | 0.131 | 0.109 |
| meng | 2 | -0.0889 | -1.64 | -0.598 |

Laid out differently: entries from further up.
Gene | dsRNA no. | Wolbachia per cell robust z, rep 1 | Wolbachia per cell robust z, rep 2 | Wolbachia per cell robust z, rep 3
obst-J | 2 | 0.252 | -0.105 | 0.263
CG14505 | 1 | -1.34 | -6.63 | -1.87
